Fold change is the IC50 on the isolate divided by the IC50 on a reference virus; 1 = unchanged, higher = more resistant. Changes are given against the subtype B consensus. No active / inactive call. The values were gathered from many studies (numbered anew) with different assays, which the source does not name. Most viruses are clinical isolates; some are laboratory strains or clones with known resistance changes. Isolates with mixed residues are left out; stretches that were not sequenced show no change. Round top values that many isolates share are read here as limits; other very high values and 0.1 may be limits too. The protease changes I3V and N37S, insertions and deletions cannot be read from the source.
Tests used:
Experiment in all cases: fold change of IC50 against reference virus; higher = more resistant; Cell-culture drug susceptibility tests of virus bearing the protease of each isolate, gathered from many studies.
nelfinavir = compound: Cc1c(O)cccc1C(=O)N[C@@H](CSc1ccccc1)[C@H](O)CN1C[C@H]2CCCC[C@H]2C[C@H]1C(=O)NC(C)(C)C [nelfinavir]
lopinavir = compound: Cc1cccc(C)c1OCC(=O)N[C@@H](Cc1ccccc1)[C@@H](O)C[C@H](Cc1ccccc1)NC(=O)[C@H](C(C)C)N1CCCNC1=O [lopinavir]
ritonavir = compound: CC(C)c1nc(CN(C)C(=O)N[C@H](C(=O)N[C@@H](Cc2ccccc2)C[C@H](O)[C@H](Cc2ccccc2)NC(=O)OCc2cncs2)C(C)C)cs1 [ritonavir]
saquinavir = compound: CC(C)(C)NC(=O)[C@@H]1C[C@@H]2CCCC[C@@H]2CN1C[C@@H](O)[C@H](Cc1ccccc1)NC(=O)[C@H](CC(N)=O)NC(=O)c1ccc2ccccc2n1 [saquinavir]
atazanavir = compound: COC(=O)N[C@H](C(=O)N[C@@H](Cc1ccccc1)[C@@H](O)CN(Cc1ccc(-c2ccccn2)cc1)NC(=O)[C@@H](NC(=O)OC)C(C)(C)C)C(C)(C)C [atazanavir]
indinavir = compound: CC(C)(C)NC(=O)[C@@H]1CN(Cc2cccnc2)CCN1C[C@@H](O)C[C@@H](Cc1ccccc1)C(=O)N[C@H]1c2ccccc2C[C@H]1O [indinavir]

In the case of “HIV-1 isolate 825 (protease changes: L10I I15V K20R E35D M36I R41K M46I I54V I62V L63P K70E A71V L76V V82A I93L, study 101)”, the “fold change of IC50 against reference virus” value (“fold change of IC50” for short) (nelfinavir) was 12, the “fold change of IC50” value (lopinavir) was 78 and the “fold change of IC50” value (ritonavir) was 35. The “fold change of IC50” value (saquinavir) was 1.7 and the “fold change of IC50” value (atazanavir) was 1.6.
With “HIV-1 isolate 1230 (protease changes: L10V T12P I13V K14R I15V G16E K20R V32I L33F E35D M36I N37C I47V I54L Q58E I62V L63H I64V A71V L76V V77I P79S V82A I84V T91S, study 101)” the “fold change of IC50” value (nelfinavir) was 15, the “fold change of IC50” value (lopinavir) was 233 and the “fold change of IC50” value (ritonavir) was 162. For the same test system, the “fold change of IC50” value (saquinavir) was 18 and the “fold change of IC50” value (atazanavir) was 51.
For “HIV-1 isolate 1522 (protease changes: L10I T12Q L19I L24I K43T M46I I54V Q61R L63P A71V L76V V82A I93L, study 101)”, the “fold change of IC50” value (nelfinavir) was 13, the “fold change of IC50” value (lopinavir) was 47 and the “fold change of IC50” value (ritonavir) was 62. For the same test system, the “fold change of IC50” value (saquinavir) was 1.8 and the “fold change of IC50” value (atazanavir) was 2.3.
“HIV-1 isolate 1575 (protease changes: L10I I15V K20R E35D M36I R41K I54V L63P A71V I72V G73S V82T I85V L90M, study 104)” was tested, and the “fold change of IC50” value (nelfinavir) was 82, the “fold change of IC50” value (indinavir) was 90 and the “fold change of IC50” value (lopinavir) was 30. For the same test system, the “fold change of IC50” value (saquinavir) was 100 and the “fold change of IC50” value (atazanavir) was 100.
With “HIV-1 isolate 625 (protease changes: L10I I15V G17D M46I L63P G73S I84V L90M, study 104)” the “fold change of IC50” value (nelfinavir) was 34, the “fold change of IC50” value (indinavir) was 50 and the “fold change of IC50” value (lopinavir) was 15. The “fold change of IC50” value (saquinavir) was 37 and the “fold change of IC50” value (atazanavir) was 59.
For “HIV-1 isolate 303 (protease changes: L10F K20I L63A A71V G73S I84V L90M, study 104)”, the “fold change of IC50” value (nelfinavir) was 68, the “fold change of IC50” value (indinavir) was 76 and the “fold change of IC50” value (lopinavir) was 30. The “fold change of IC50” value (saquinavir) was 100 and the “fold change of IC50” value (atazanavir) was 100.
With “HIV-1 isolate 315 (protease changes: T4S M46I I50V L63P H69Q L76V, study 101)” the “fold change of IC50” value (nelfinavir) was 1.3, the “fold change of IC50” value (lopinavir) was 3.4 and the “fold change of IC50” value (ritonavir) was 1.6. For the same test system, the “fold change of IC50” value (saquinavir) was 0.3 and the “fold change of IC50” value (atazanavir) was 0.4.
With “HIV-1 isolate 1221 (protease changes: I13V E35D M36I M46I I50V L63P V82I, study 101)” the “fold change of IC50” value (nelfinavir) was 5.6, the “fold change of IC50” value (lopinavir) was 7.8 and the “fold change of IC50” value (ritonavir) was 18. The “fold change of IC50” value (saquinavir) was 1.9 and the “fold change of IC50” value (atazanavir) was 0.9.
With “HIV-1 isolate 897 (protease changes: T4S L10F M46I I50V L63P H69Q A71V L76V T91A, study 101)” the “fold change of IC50” value (nelfinavir) was 0.8, the “fold change of IC50” value (lopinavir) was 10 and the “fold change of IC50” value (ritonavir) was 1.5. For the same test system, the “fold change of IC50” value (saquinavir) was 0.4 and the “fold change of IC50” value (atazanavir) was 0.5.
With “HIV-1 isolate 1215 (protease changes: M46L G48V L63P T74S V77I V82A, study 104)” the “fold change of IC50” value (nelfinavir) was 12, the “fold change of IC50” value (indinavir) was 18 and the “fold change of IC50” value (lopinavir) was 4. For the same test system, the “fold change of IC50” value (saquinavir) was 37 and the “fold change of IC50” value (atazanavir) was 42.
In the case of “HIV-1 isolate 850 (protease changes: L10I K20I E35D M36I R41K I54V L63P A71V G73S I84V L90M, study 104)”, the “fold change of IC50” value (nelfinavir) was 100, the “fold change of IC50” value (indinavir) was 100 and the “fold change of IC50” value (lopinavir) was 50. The “fold change of IC50” value (saquinavir) was 75 and the “fold change of IC50” value (atazanavir) was 100.
For “HIV-1 isolate 308 (protease changes: L10I K43T M46L G48V I54V L63P I72V V77I V82A L90M, study 104)”, the “fold change of IC50” value (nelfinavir) was 63, the “fold change of IC50” value (indinavir) was 77 and the “fold change of IC50” value (lopinavir) was 70. The “fold change of IC50” value (saquinavir) was 100 and the “fold change of IC50” value (atazanavir) was 100.
“HIV-1 isolate 368 (protease changes: L10V K20R V32I L33F E35D M36L N37D M46I I47V I54L L63P I64M C67E A71V I72V V82A L89V L90M I93L, study 15)” was tested, and the “fold change of IC50” value (indinavir) was 26, the “fold change of IC50” value (lopinavir) was 198 and the “fold change of IC50” value (ritonavir) was 400. For the same test system, the “fold change of IC50” value (saquinavir) was 11 and the “fold change of IC50” value (atazanavir) was 53.
In the case of “HIV-1 isolate 931 (protease changes: W6R L10I G16A L33F G48V I54M L63P A71V V77I V82A I84V L90M I93L C95F, study 104)”, the “fold change of IC50” value (nelfinavir) was 29, the “fold change of IC50” value (indinavir) was 60 and the “fold change of IC50” value (lopinavir) was 27. For the same test system, the “fold change of IC50” value (saquinavir) was 100 and the “fold change of IC50” value (atazanavir) was 100.
In the case of “HIV-1 isolate 1325 (protease changes: T12S I15V L19I M36I R41K K45N I50L L63P H69K L89M I93L, study 115)”, the “fold change of IC50” value (lopinavir) was 0.3 and the “fold change of IC50” value (atazanavir) was 8.6.
“HIV-1 isolate 631 (protease changes: none, study 43)” was tested, and the “fold change of IC50” value (nelfinavir) was 1, the “fold change of IC50” value (indinavir) was 1 and the “fold change of IC50” value (ritonavir) was 1. The “fold change of IC50” value (saquinavir) was 1 and the “fold change of IC50” value (atazanavir) was 1.
For “HIV-1 isolate 1286 (protease changes: I13V K20R D30N E35D M36I I54V I62V L63P A71V N88D L90M, study 24)”, the “fold change of IC50” value (nelfinavir) was 479, the “fold change of IC50” value (indinavir) was 17 and the “fold change of IC50” value (ritonavir) was 54. The “fold change of IC50” value (saquinavir) was 118 and the “fold change of IC50” value (atazanavir) was 41.
For “HIV-1 isolate 899 (protease changes: M46I V82F I84V L90M, study 43)”, the “fold change of IC50” value (nelfinavir) was 22, the “fold change of IC50” value (indinavir) was 29 and the “fold change of IC50” value (ritonavir) was 71. The “fold change of IC50” value (saquinavir) was 8 and the “fold change of IC50” value (atazanavir) was 7.
With “HIV-1 isolate 57 (protease changes: Q2V M36I L63P, study 115)” the “fold change of IC50” value (nelfinavir) was 1.1, the “fold change of IC50” value (indinavir) was 0.9 and the “fold change of IC50” value (ritonavir) was 1.1. The “fold change of IC50” value (saquinavir) was 0.9 and the “fold change of IC50” value (atazanavir) was 0.9.

Source: the supplement of paper PMC3578754
